# In PubChem BioAssay AID504582 (Broad Institute, 2011):
# Only a part is listed here, and it is no random draw. Active and inactive are the calls of the source. Rule as the data show it: active = growth rescue above about 28% (passing the limit was not always enough); inconclusive = no clear call, values can overlap the other calls.
# Assay: rescue of yeast from PfHsp40 toxicity, primary screen, S. cerevisiae, ATP luminescence (AID 504582);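 also: yeast W303a lacking pdr1 and pdr3 grown in galactose medium; growth measured after three days at 30 °C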
# Details: S. cerevisiae expressing PfHsp40, growth rescue, at 12.5 µM, hits give high values
row,SMILES,growth rescue
1,Cc1ccc(NP(=O)(Oc2ccccc2)Oc2ccccc2)nc1,inactive: 2.16%
2,O=[N+]([O-])c1cc([N+](=O)[O-])c(CCNc2ccccc2)c([N+](=O)[O-])c1,inactive: -0.734%
3,CCc1nc2c(n1)c1c(non1O)c1c2no[n+]1[O-],inactive: -0.296%
4,CC(=O)N1C2C3N(C(C)=O)C1C1N(C(C)=O)C(C(N1C(C)=O)N3C(C)=O)N2C(C)=O,inactive: -0.805%
5,O=[N+]([O-])c1cccc2n[nH]nc12,inactive: -0.276%
6,COc1ccc(C2=NCC(CBr)S2)cc1 (stereo not drawn),inactive: -2.43%
7,CC1CCN(C(=O)Oc2c(Cl)cc(Cl)c3cccnc23)CC1,inactive: 0.175%
8,CC(C)=N/N=C(\N)N[N+](=O)[O-],inactive: -1.06%
9,CN(C)C(=O)OCCc1n(C)cc[n+]1C,inactive: 0.606%
10,CCN(/C(=N/P(=O)(N1CCOCC1)N1CCOCC1)N1CCOCC1)c1ccc(OC)cc1,inactive: -0.505%
11,Nc1ccc([As](=O)(O)c2ccc(N)cc2)cc1,inactive: 0.025%
12,C[N+]1=C2C=CC=CC=C2SC12C([N+](=O)[O-])=CC([N+](=O)[O-])=C[C-]2[N+](=O)[O-] (stereo not drawn),active: 36.5%
13,O=C(Nc1cc([As](=O)(O)O)ccc1O)c1ccccc1,inactive: 0.642%
14,O=P1(N(CCCl)CCCl)OCCCS1 (stereo not drawn),inactive: -0.397%
15,O=C(O)CNc1ccc([As](=O)(O)O)cc1,inactive: 0.733%
16,O=[N+]([O-])c1cccc(NC2=NCC(CBr)S2)c1 (stereo not drawn),inactive: -0.51%
17,COC(=O)C1(C)COP(=O)(Nc2ccccc2)OC1 (stereo not drawn),inactive: 1.08%
18,Cn1c(=O)[nH]c(=O)c2c1nc(Br)n2Cc1ccccc1,inactive: 0.819%
19,O=[N+]([O-])c1ncn(CCn2ncnc2[N+](=O)[O-])n1,inactive: -0.449%
20,CC(C)(C)C(=O)NC(Sc1ccncn1)C(Cl)(Cl)Cl (stereo not drawn),inactive: -1.22%
21,CCOP(=O)(Nc1ccccc1)OCC,inactive: -0.339%
22,Cc1cc(SC(NC(=O)c2ccc(F)cc2)C(Cl)(Cl)Cl)ncn1 (stereo not drawn),inactive: -0.169%
23,CN(C(=O)Cc1ccc(Cl)c(Cl)c1)[C@H]1CCCC[C@@H]1N1CCCC1,inactive: 1.14%
24,Cc1ccc(NP(=O)(Oc2ccccc2F)Oc2ccccc2F)nc1,inactive: 0.322%

row,SMILES,growth rescue
1,O=P(Nc1nc2ccc(Cl)cc2s1)(c1ccccc1)c1ccccc1,inactive: 0.808%
2,O=C(O)c1ccccc1[As](=O)(O)O,inactive: 3.44%
3,CC(=O)Nc1ccc([As](=O)(O)O)cc1,inactive: -1.06%
4,CCCC1OP(N)(=O)OCC1CC (stereo not drawn),inactive: 5.05%
5,Nc1cccc2ccc([As](=O)(O)O)cc12,inactive: 1.61%
6,CCN(N=Nc1nonc1N)c1nonc1N,inactive: 2.27%
7,CC1=CC(=O)OC2CC3OC4C[C@@H](C)C5OC6CC7O[C@]8(C)C/C=C\C9OC%10CC%11OC(CC(C)CO)CC(O)[C@]%11(C)OC%10CC9OC8C[C@]7(C)O[C@]6(C)CCC5OC4C[C@]3(C)OC12 (stereo partly drawn),inactive: -2.32%
8,Clc1ccc(Cl)c(NC2=NCC(CBr)S2)c1 (stereo not drawn),inactive: -0.113%
9,CN1CCCC(OC(=O)C(c2ccccc2)c2ccccc2)C1 (stereo not drawn),inactive: -0.162%
10,COc1ccccc1OP(=O)(Nc1ccc(C)cn1)Oc1ccccc1OC,inactive: -0.914%
11,CN(C(=O)Cc1ccc(Cl)c(Cl)c1)[C@H]1CCCC[C@H]1N1CCCC1,inactive: -1.17%
12,Cc1ccc(N/C(=N/P(=O)(N2CCOCC2)N2CCOCC2)N2CCOCC2)cc1,inactive: -1.51%
13,C[C@H]1[C@@H](OS(=O)(=O)O)C[C@@H]2C[C@H]([C@@H](O)c3cc(=O)[nH]c(=O)[nH]3)NC3=NC[C@H]1N32,inactive: 0.837%
14,NC(=O)c1cc([N+](=O)[O-])cc([N+](=O)[O-])c1N,inactive: -0.796%
15,CC(O)C1C=CC=CC(=O)OC2CC3OC4C5OC5(C)C(O)CC4(COC(=O)C(O)C(C)CCO1)C2(C)C31CO1 (stereo not drawn),inactive: 1.27%
16,COc1ccc(O)c2c(=O)c3c(OC)cc4c(c3oc12)C1C=COC1O4 (stereo not drawn),inactive: -0.0325%
17,Oc1ccccc1CNc1ccccn1,inactive: -1.07%
18,O=C(NC(Sc1ccncn1)C(Cl)(Cl)Cl)c1ccccc1 (stereo not drawn),inactive: -0.0395%
19,CC(C)CC(=O)NC(Sc1ccc(Cl)cc1)C(Cl)(Cl)Cl (stereo not drawn),inactive: -0.475%
20,Nc1cc(N)c2nonc2c1[N+](=O)[O-],inactive: -0.482%
21,CC(C)(C)C(=O)NC(Sc1ccccc1)C(Cl)(Cl)Cl (stereo not drawn),inactive: -0.739%
22,CCc1cc(O)c([N+](=O)[O-])c(C)c1[N+](=O)[O-],inactive: 0.232%
23,O=P1(Nc2nc3ccc(Cl)cc3s2)COc2ccccc2O1 (stereo not drawn),inactive: 0.765%
24,CCOc1ccc(C2=NCC(CBr)S2)cc1 (stereo not drawn),inactive: 0.438%

row,SMILES,growth rescue
1,CC(=O)Nc1ccc([As](=O)(O)O)c(O)c1,inactive: 1.01%
2,CC(=O)Nc1ccc(Oc2c([N+](=O)[O-])cc([N+](=O)[O-])cc2[N+](=O)[O-])cc1,inactive: 0.236%
3,C=C(CO)CC1CC(O)[C@]2(C)OC3CC4OC5C[C@]6(C)O[C@]7(C)CCC8OC9C[C@]%10(C)OC%11C(C)=CC(=O)OC%11CC%10OC9C[C@@H](C)C8OC7CC6O[C@]5(C)C/C=C\C4OC3CC2O1 (stereo partly drawn),inactive: -2.41%
4,Cc1ccccc1CN(C)C(=O)COC(=O)C(O)(c1ccccc1)c1ccccc1,inactive: 0.713%
5,C[C@@H]1C=CCP(=O)(Oc2ccccc2)O1 (stereo partly drawn),inactive: 5.99%
6,C[C@H]1OP(=O)(Oc2ccccc2)C[C@@H]2O[C@@H]21 (stereo partly drawn),inactive: -0.81%
7,N#C/C(=C\c1ccc(N(CCBr)CCBr)cc1)C(N)=O,inactive: 0.465%
8,CC(=O)c1ccc(N2CC2c2ccncc2)cc1 (stereo not drawn),inactive: -0.455%
9,COC(=O)C1(C)COP(=O)(NCc2ccccc2)OC1 (stereo not drawn),inactive: 1.26%
10,C=C(COC(=O)CCC(=O)O)CC1CC(O)[C@]2(C)OC3CC4OC5C[C@]6(C)O[C@]7(C)CCC8OC9C[C@]%10(C)OC%11C(C)=CC(=O)OC%11CC%10OC9C[C@@H](C)C8OC7CC6O[C@]5(C)C/C=C\C4OC3CC2O1 (stereo partly drawn),inactive: -0.544%
11,O=P1(N(CCCl)CCCl)OCCC2CCCCN21 (stereo not drawn),inactive: 0.485%
12,c1ccc(-c2nn[nH]n2)c(-c2nn[nH]n2)c1,inactive: -1.76%
13,Cc1ccc(NP(=O)(Oc2cccc(C)c2)Oc2cccc(C)c2)nc1,inactive: 2.99%
14,O=C(NC1CCS(=O)(=O)C1)NP(=S)(Oc1ccccc1)Oc1ccccc1 (stereo not drawn),inactive: 2.92%
15,CCNC(=S)/N=C(\N)N[N+](=O)[O-],inactive: 0%
16,Cc1ccccc1OP(=O)(Nc1ccccn1)Oc1ccccc1C,inactive: 0.337%
17,CC(NC(=O)COC(=O)C(O)(c1ccccc1)c1ccccc1)c1ccccc1 (stereo not drawn),inactive: -0.564%
18,CN(C)C(=O)Oc1noc2ccccc12,inactive: 0.444%
19,O=c1c2cc([N+](=O)[O-])ccc2[nH]c2c([N+](=O)[O-])cc([N+](=O)[O-])cc12,inactive: -0.902%
20,O=C(OC1CN2CCC1CC2)c1ccccc1 (stereo not drawn),inactive: 0.536%
21,CCC(=O)N1C2C3N(C(=O)CC)C1C1N(C(=O)CC)C(C(N1C(=O)CC)N3C(=O)CC)N2C(=O)CC,inactive: -0.068%
22,COC(=O)c1cc2c(s1)N=C(c1ccccc1)N(C)P2(=O)N1CCOCC1 (stereo not drawn),inactive: 1.18%
23,Cc1ccc(OP(=O)(Nc2ccccn2)Oc2ccc(C)cc2)cc1,active: 82.3%
24,CC(=O)NC(SC(=S)N(CC(C)C)CC(C)C)C(Cl)(Cl)Cl (stereo not drawn),inactive: 2.99%

row,SMILES,growth rescue
1,O=P(Nc1nc2ccccc2s1)(c1ccccc1)c1ccccc1,inactive: -2.72%
2,C[C@H]1OP(=O)(Oc2ccccc2)[C@H](O)[C@H](O)[C@H]1N=[N+]=[N-] (stereo partly drawn),inactive: -1.12%
3,O=P(Nc1ccccn1)(c1ccc(Br)cc1)c1ccc(Br)cc1,inactive: -1.06%
4,COc1ccc(N)c([N+](=O)[O-])c1[N+](=O)[O-],inactive: 0.354%
5,O=C(OC1CN2CCC1CC2)c1cccc(Cl)c1 (stereo not drawn),inactive: -1.08%
6,Nc1ccc([As](=O)(O)c2ccc([N+](=O)[O-])cc2)cc1,inactive: -1.99%
7,C(Cc1nn[nH]n1)Cc1nn[nH]n1,inactive: -1.73%
8,O=[As](O)(c1ccccc1)c1ccc(O)cc1,inactive: 1.09%
9,O=[N+]([O-])c1ncn(CCn2cnc([N+](=O)[O-])n2)n1,inactive: -0.836%
10,CC(=O)NC(SC(=S)N(C)C)C(Cl)(Cl)Cl (stereo not drawn),inactive: 8.11%
11,O=[N+]([O-])c1ccc(O)c(/C=N/Nc2ccc([N+](=O)[O-])cc2[N+](=O)[O-])c1,inactive: -2.52%
12,c1nnnn1CCn1cnnn1,inactive: 0.0895%
13,O=P(Nc1nccs1)(c1ccccc1)c1ccccc1,inactive: 0.105%
14,CC(C)C(=O)NC(Sc1ccccc1)C(Cl)(Cl)Cl (stereo not drawn),inactive: 0.04%
15,Clc1n[nH]nc1-c1nn[nH][15n]1,inactive: 0.658%
16,CC(C)(C)C(=O)NC(Sc1ncccn1)C(Cl)(Cl)Cl (stereo not drawn),inactive: -1.09%
17,CCC1=CC2Cc3nc4ccc(Cl)cc4c(N)c3C(C1)C2 (stereo not drawn),inactive: 0.416%
18,O=P1(Nc2ccccn2)COc2ccccc2OC1,inactive: -0.798%
19,CCOP(=O)(NC(=NC(C)c1ccccc1)NC(C)c1ccccc1)OCC (stereo not drawn),inactive: -0.274%
20,CCOP(=O)(Nc1ccc(C)cn1)OCC,inactive: -0.936%
21,CN(C(=O)Cc1ccc(Cl)c(Cl)c1)[C@@H]1CCCC[C@H]1N1CCCC1,inactive: 0.187%
